# Tested on: SR-D-associated reverse transcriptase
# Format: biochemical
# Settings: FIGS. 1A and B
compound,measurement,setting,value
O=C(O)P(=O)(O)O [foscarnet],Efficiency index 90% (inhibition derived from FIG. 1),LD50/inhibitor concentration blocking 90% of the polymerase activity,25
same,Efficiency index 99% (inhibition derived from FIG. 1),LD50/inhibitor concentration blocking 99% of the polymerase activity,1
